Compound potency records, mixed from different reports. Data source: NIAID ChemDB in PubChem.

Common to all: tests in culture; agent: HIV-1; cell line: MT-4; method: p24; endpoint: EC95

ECn is the concentration giving n% inhibition of infection, replication or growth.

SMILES	mutations	strain or isolate	value
CN1CCCn2c(nc(C(=O)NCc3ccc(F)cc3)c(O)c2=O)C1(C)C			<1 µM
CC(C)[C@H](NC(=O)OCc1ccccn1)C(=O)N[C@@H](Cc1ccccc1)[C@@H](O)C[C@H](Cc1ccccc1)NC(=O)OCc1cccnc1	PR-L10R L63P	NL4-3	0.8 µM
Cc1cnc(CN2CCn3c(nc(C(=O)NCc4ccc(F)cc4)c(O)c3=O)C2(C)C)o1			<1 µM
N#Cc1cc(Cl)cc(Oc2cc(Cl)cc(OCC(=O)Nc3ccc(C(N)=O)cc3Cl)c2)c1			<20 µM
O=C1c2c(O)c(=O)n(C3CCNCC3)c(=O)n2CCN1Cc1ccc(F)cc1			<10 µM
O=C(NCc1ccc(F)cc1)c1nc2n(c(=O)c1O)CCN(Cc1ccccc1)CC2			<50 µM
O=C1c2c(O)c(=O)n(N3CCCCCC3)c(=O)n2CCN1Cc1ccc(F)cc1			<10 µM
NS(=O)(=O)c1ccc(NC(=O)COc2cccc(Cc3ccccc3)c2)c(Cl)c1			<20 µM
O=C1c2c(O)c(=O)n([C@@H]3CCCC[C@@H]3O)c(=O)n2CCN1Cc1ccc(F)cc1			<10 µM
CN1CCn2c(nc(C(=O)NCc3ccc(F)cc3)c(O)c2=O)C(N(C)S(=O)(=O)N(C)C)C1			<1 µM
Cc1cc(OCc2nc3ccccc3s2)cc(Oc2cc(Cl)cc(C#N)c2)c1			<20 µM
O=C(CN1CCOCC1)N1CCC(n2c(=O)c(O)c3n(c2=O)CCN(Cc2ccc(F)cc2)C3=O)CC1			<10 µM
Cn1nncc1CN1CCn2c(nc(C(=O)NCc3ccc(F)cc3)c(O)c2=O)C1(C)C			<1 µM
COc1ccc(-n2c(=O)c(O)c3n(c2=O)CCN(Cc2ccc(F)cc2)C3=O)cc1			<10 µM
CC1(C)c2nc(C(=O)NCc3ccc(F)cc3)c(O)c(=O)n2CCN1Cc1ncco1			<1 µM
N#Cc1cc(Cl)cc(Oc2cc(Cl)cc(OCC(=O)Nc3ccc4nc[nH]c4c3)c2)c1			<20 µM
CNCCC1CN(Cc2ccc(F)cc2)C(=O)c2c(O)c(=O)n(C(C)C)c(=O)n21			<10 µM
Cn1nnc(CN2CCn3c(nc(C(=O)NCc4ccc(F)cc4)c(O)c3=O)C2(C)C)n1			<1 µM
CN(C)S(=O)(=O)c1ccc2c(c1)CCN2C(=O)COc1cc(Cl)cc(Oc2cc(Cl)cc(C#N)c2)c1			<20 µM
COCC(C)n1c(=O)c(O)c2n(c1=O)CCN(Cc1ccc(F)cc1)C2=O			<10 µM
N#Cc1cc(Cl)cc(Oc2cc(F)cc(OCc3[nH]nc4ncccc34)c2)c1			<20 µM
O=C1c2c(O)c(=O)n(C3CCN(CC4CC4)CC3)c(=O)n2CCN1Cc1ccc(F)cc1			<10 µM
Cc1noc(CN2CCn3c(nc(C(=O)NCc4ccc(F)cc4)c(O)c3=O)C2(C)C)n1			<1 µM
Cn1c(COc2ccc(Cl)c(Oc3cc(Cl)cc(C#N)c3)c2)nc2ccccc21			<20 µM

2 of the rows above, restated:

SMILES	mutations	strain or isolate	value
Cn1c(COc2ccc(Cl)c(Oc3cc(Cl)cc(C#N)c3)c2)nc2ccccc21			<20 µM
COCC(C)n1c(=O)c(O)c2n(c1=O)CCN(Cc1ccc(F)cc1)C2=O			<10 µM

An empty or dashed field is not shown. Rows are shuffled and stem from different studies.